US20110038791A1, “METHODS FOR INHIBITING SIX1 AND EYA PROTEINS” (priority 2008, published 2011)

Chains of the proteins cited; added tags and fusions are not shown. Residues count along the entry.
UniProt O00167, 253-538 limits assumed: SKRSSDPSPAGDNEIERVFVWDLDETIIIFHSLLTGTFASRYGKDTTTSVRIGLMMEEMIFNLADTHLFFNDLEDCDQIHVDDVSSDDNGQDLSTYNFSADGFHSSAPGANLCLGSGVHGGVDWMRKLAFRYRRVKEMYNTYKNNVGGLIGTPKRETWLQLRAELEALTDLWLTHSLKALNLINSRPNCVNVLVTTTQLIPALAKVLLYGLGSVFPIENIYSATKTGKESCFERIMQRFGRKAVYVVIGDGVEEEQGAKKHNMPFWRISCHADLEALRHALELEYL

Molecular target: human Eya2 Eya Domain (ED) (Homo sapiens, UniProt O00167)
Experiment: Inhibition of the phosphatase activity of Eya2 Eya Domain (ED) by known phosphatase inhibitors
Format: biochemical
Settings: at the concentrations that typically completely inhibit their cognate phosphatases

O=[As]c1ccccc1 (stereo not shown)
effect on ED phosphatase activity: no effect
